Measured values taken from patent publication US9078928B2, “Conjugated molecules comprising a peptide derived from the CD4 receptor coupled to a polyanionic polypeptide for the treatment of AIDS” (Institut Pasteur, priority 2011, dated 2015).

Assays:
[1] = test system: R5-tropic HIV-1/Ba-L; assay: Antiviral assay in PHA-P-activated PBMC, RT activity in supernatant at day 7 (Example 3); assay type: cell-based; details: mean of triplicate; for ED70 VIH-1/Ba-L(R5) Average: effective dose to inhibit 70% of HIV-1 replication; for ED90 VIH-1/Ba-L(R5) Average: effective dose to inhibit 90% of HIV-1 replication
Protocol: Briefly, the X4-tropic HIV-1-LAI (Barre-Sinoussi, Science 220, 868-71, 1983) or the R5-tropic HIV-1/Ba-L (Gartner et al, Science 233, 215-9, 1986) strains were amplified and titrated in vitro on Phytohemaglutinin-P (PHA-P)-activated peripheral blood mononuclear cells (PBMC). Tissue culture infectious doses were calculated using Kärber's formula (Kärber, Arch. Exp. Path. Pharmak. 162, 480-483, 1931). […] Drugs were maintained throughout the culture, and cell supernatants were collected at day 7 post-infection and stored at −20° C. Azidothymidine (AZT) was used in these experiments as an internal control. Viral replication was measured by quantifying reverse transcriptase (RT) activity in cell culture supernatants using the RetroSys HIV RT kit (Innovagen). In parallel, cytotoxicity of the samples was evaluated in uninfected PHA-P-activated PBMC by a methyltetrazolium salt (MTT) assay on day 7. Experiments were performed in triplicate and 50, 70 and 90% effective doses and cytotoxic doses were calculated using SoftMaxPro software.
Molecules and viruses were maintained throughout the culture, and cell supernatants were collected at day 7 post-infection from which reverse transcriptase activity was quantified. Experiments were performed in triplicate and 50, 70 and 90% effective doses (ED), in nM (±S.D.) were calculated using SoftMaxPro software.

[2] = test system: LAI HIV-1; assay: Antiviral assay against LAI HIV-1, compounds preincubated with cells or with viruses (Example 4, Table 7); assay type: cell-based; details: mean ± s.d. of triplicate; for ED70 LAI HIV-1, Pre-treated cells / ED90 LAI HIV-1, Pre-treated cells: compounds preincubated with the cells; for ED70 LAI HIV-1, Pre-treated viruses / ED90 LAI HIV-1, Pre-treated viruses: compounds preincubated with the viruses
Protocol: (§1) Phytohemagglutinin (PHA)-P-activated PBMCs were infected either with the reference lymphotropic HIV-1/LAI strain (Barre-Sinoussi, et al., 1983) or with the reference macrophage-tropic HIV-1/Ba-L strain (Gartner, et al., 1986). These viruses were amplified in vitro with PHA-P-activated blood mononuclear cells. Viral stocks (including clinical isolates) were titrated using PHA-P-activated PBMCs, and 50% tissue culture infectious doses (TCID50) were calculated using Kärber's formula (Kärber, 1931). Viruses (125 TCID50) were incubated for 30 min with five concentrations (1:5 dilutions between 500 nM and 320 pM) of each of the molecules to be tested and added to 150 000 PBMCs (m.o.i.˜0.001). Cell supernatants were collected at day 7 post-infection and stored at −20° C. In some cases, the compounds were added to the cells prior to viral challenge. Viral replication was measured by quantifying reverse transcriptase (RT) activity in the cell culture supernatants using the Lenti RT Activity Kit (Cavisi) and AZT was used as reference anti-HIV-1 molecule. In parallel, cytotoxicity was evaluated on day 7 in uninfected PHA-P-activated PBMC using a colorimetric methyl-tetrazolium salt (MTS/PMS) assay (Promega). Experiments were performed in triplicate and 50, 70 and 90% effective doses (ED) were calculated using SoftMaxPro software.
Indeed, addition of the molecule either to the cells, prior to the viral challenge or to the virus prior to the cell infection return, identical results (cf. table 7).

[3] = test system: HIV-1 92US723 (B-R5/X4); assay: Antiviral assay on clinical isolate in PHA-P-activated PBMCs, RT activity (Example 4); assay type: cell-based; details: clade-tropism B-R5/X4; mean ± s.d. of triplicate
Excerpt: (§2) The antiviral assay was extended to a series of more clinically relevant primary strains, including 92UG029, SF162, 92US723, 96USHIPS4, 92HT599 and 98IN017.
as §1

[4] = test system: HIV-1 96USHIPS4 (B-R5/X4); assay: as above; assay type: cell-based; details: clade-tropism B-R5/X4; mean ± s.d. of triplicate
Excerpt: as §2, §1

[5] = test system: HIV-1 98IN017 (C-X4); assay: as above; assay type: cell-based; details: clade-tropism C-X4; mean ± s.d. of triplicate
Excerpt: as §2, §1

[6] = test system: HIV-1 92UG029 (A-X4); assay: as above; assay type: cell-based; details: clade-tropism A-X4; mean ± s.d. of triplicate
Excerpt: as §2, §1

[7] = test system: HIV-1 92HT599 (B-X4); assay: as above; assay type: cell-based; details: clade-tropism B-X4; mean ± s.d. of triplicate
Excerpt: as §2, §1

[8] = test system: HIV-1 SF162 (B-R5); assay: as above; assay type: cell-based; details: clade-tropism B-R5; mean ± s.d. of triplicate
Excerpt: as §2, §1

[9] = biological target: T1, gp120 MN (X4) (Human immunodeficiency virus type 1 group M subtype B, UniProt P05877); assay type: binding, HIV; details: heparin-coated surface (FIG. 5F)
T1 construct: Two different gp120 were used, originating from a type X4 isolate (gp120 MN)
Protocol: (§3) Two different gp120 were used, originating from a type X4 isolate (gp120 MN) and a type R5 isolate (gp120 YU2). The capacity of different molecules to inhibit gp120 interactions with various receptors or co-receptors is measured by surface plasmonic resonance (Biacore).
In another set of experiments, heparin is coated on the surface, and gp120 alone (grey line) or pre-incubated with the compounds to be tested are injected onto these surfaces (FIG. 5F). The interaction signal between gp120 and heparin is measured as a function of time.

[10] = biological target: T2, gp120 YU2 (R5) (Human immunodeficiency virus type 1 group M subtype B, UniProt P35961); assay: Biacore (SPR): gp120 YU2 / mAb17b interaction; assay type: binding, HIV; details: for mAb17b binding to gp120 YU2(R5)-coated surface pretreated with the compound: 100 nM compound, mAb17b 15 μg/ml (FIG. 5A-C); for binding of gp120 YU2 in complex with the compound to mAb17b-coated surface: mAb17b-coated surface (FIG. 5G)
T2 construct: Two different gp120 were used
Protocol: as §3
(§4) To do this, proteins (in this case gp120 envelop proteins) can be immobilized on the surface of a biosensor (Sensorchip CM 4 Biacore) in accordance with the described procedure (Vives et al. J. Biol. Chem. 279, 54327-54333, 2005).
(§5) The interaction signal between gp120 and mAb17b is measured as a function of time.

[11] = biological target: T1, gp120 MN (X4); assay type: binding, HIV; details: for mAb17b binding to gp120 MN(X4)-coated surface pretreated with the compound: 100 nM compound, mAb17b 15 μg/ml (FIG. 5A-C); for binding of gp120 MN in complex with the compound to mAb17b-coated surface: mAb17b-coated surface (FIG. 5D)
Protocol: as §3, §4, §5

[12] = biological target: T2, gp120 YU2 (R5); assay: Biacore (SPR): gp120 YU2 binding to sCD4-coated surface; parameters: species or system HIV; details: sCD4-coated surface (FIG. 5H)
Protocol: as §3
In another set of experiments, sCD4 is coated on the surface, and gp120 alone (grey line) or pre-incubated with the compounds to be tested are injected onto these surfaces (FIGS. 5E and 5H). The interaction signal between gp120 and sCD4 is measured as a function of time.

CC(C)C[C@@H]1NC(=O)CNC(=O)[C@H](CC(C)C)NC(=O)[C@H](CO)NC(=O)[C@H](CO)NC(=O)[C@@H]2CSSC[C@@H](C(=O)N[C@H](C(N)=O)C(C)C)NC(=O)[C@H](C)NC(=O)[C@@H]3CSSC[C@H](NC(=O)[C@H](CCCCN)NC(=O)[C@H](Cc4c[nH]cn4)NC(=O)[C@H](CC(C)C)NC(=O)[C@H](CC(N)=O)NC(=O)CCSSC[C@H](NC(=O)[C@H](CCCNC(=N)N)NC(=O)CNC(=O)[C@H](CC(C)C)NC1=O)C(=O)N[C@@H](C)C(=O)NCC(=O)N[C@@H](CO)C(=O)N[C@@H](Cc1ccc(-c4ccccc4)cc1)C(=O)N3)C(=O)N[C@@H](CCC(N)=O)C(=O)N[C@@H](CC(C)C)C(=O)N[C@@H](CCCNC(=N)N)C(=O)N2 [mCD4, reference compound]
ED70 VIH-1/Ba-L(R5) Average [1]: >500 nM | ED90 VIH-1/Ba-L(R5) Average [1]: >500 nM | ED70 LAI HIV-1, Pre-treated cells [2]: >500 nM | ED90 LAI HIV-1, Pre-treated cells [2]: >500 nM | ED70 LAI HIV-1, Pre-treated viruses [2]: 474 ± 27 nM | ED90 LAI HIV-1, Pre-treated viruses [2]: >500 nM | ED70 92US723 [3]: 34 ± 10 nM | ED90 92US723 [3]: 52 ± 22 nM | ED70 96USHIPS4 [4]: >500 nM | ED90 96USHIPS4 [4]: >500 nM | ED70 98IN017 [5]: >500 nM | ED90 98IN017 [5]: >500 nM | ED70 92UG029 [6]: >500 nM | ED90 92UG029 [6]: >500 nM | ED70 92HT599 [7]: >500 nM | ED90 92HT599 [7]: >500 nM | ED70 SF162 [8]: 352 ± 105 nM | ED90 SF162 [8]: >500 nM | binding of gp120 MN in complex with the compound to heparin-coated surface [9]: not inhibited | mAb17b binding to gp120 YU2(R5)-coated surface pretreated with the compound [10]: binds and unmasks the CD4i epitope | binding of gp120 YU2 in complex with the compound to mAb17b-coated surface [10]: enhanced | mAb17b binding to gp120 MN(X4)-coated surface pretreated with the compound [11]: binds and unmasks the CD4i epitope | binding of gp120 MN in complex with the compound to mAb17b-coated surface [11]: binding occurs | binding of gp120 YU2 in complex with the compound to sCD4-coated surface [12]: partially inhibited

CC(C)C[C@@H]1NC(=O)CNC(=O)[C@H](CC(C)C)NC(=O)[C@H](CO)NC(=O)[C@H](CO)NC(=O)[C@@H]2CSSC[C@@H](C(=O)N[C@H](C(N)=O)C(C)C)NC(=O)[C@H](C)NC(=O)[C@@H]3CSSC[C@H](NC(=O)[C@H](CCCCNC(=O)CCOCCOCCNC(=O)CCN4C(=O)CC(SCCC(=O)NCCCC(=O)N[C@@H](CO)C(=O)N[C@@H](Cc5ccc(OS(=O)(=O)O)cc5)C(=O)N[C@@H](CC(=O)O)C(=O)N[C@@H](Cc5ccc(OS(=O)(=O)O)cc5)C(=O)N[C@@H](CO)C(=O)N[C@@H](Cc5ccc(OS(=O)(=O)O)cc5)C(=O)N[C@@H](CC(=O)O)C(=O)N[C@@H](Cc5ccc(OS(=O)(=O)O)cc5)C(=O)N[C@@H](CO)C(=O)N[C@@H](Cc5ccc(OS(=O)(=O)O)cc5)C(=O)N[C@@H](CC(=O)O)C(=O)N[C@@H](Cc5ccc(OS(=O)(=O)O)cc5)C(=O)N[C@@H](CO)C(=O)O)C4=O)NC(=O)[C@H](Cc4c[nH]cn4)NC(=O)[C@H](CC(C)C)NC(=O)[C@H](CC(N)=O)NC(=O)CCSSC[C@H](NC(=O)[C@H](CCCNC(=N)N)NC(=O)CNC(=O)[C@H](CC(C)C)NC1=O)C(=O)N[C@@H](C)C(=O)NCC(=O)N[C@@H](CO)C(=O)N[C@@H](Cc1ccc(-c4ccccc4)cc1)C(=O)N3)C(=O)N[C@@H](CCC(N)=O)C(=O)N[C@@H](CC(C)C)C(=O)N[C@@H](CCCNC(=N)N)C(=O)N2 (stereo partly drawn) [mCD4-P3YSO3]
ED70 VIH-1/Ba-L(R5) Average [1]: 3.1 nM | ED90 VIH-1/Ba-L(R5) Average [1]: 20 nM | ED70 LAI HIV-1, Pre-treated cells [2]: 0.6 ± 0.2 nM | ED90 LAI HIV-1, Pre-treated cells [2]: 1 ± 0.2 nM | ED70 LAI HIV-1, Pre-treated viruses [2]: 0.7 ± 0.3 nM | ED90 LAI HIV-1, Pre-treated viruses [2]: 0.9 ± 0.2 nM | ED70 92US723 [3]: 0.35 ± 0.2 nM | ED90 92US723 [3]: 0.45 ± 0.2 nM | ED70 96USHIPS4 [4]: 1.6 ± 1.2 nM | ED90 96USHIPS4 [4]: 3 ± 1.4 nM | ED70 98IN017 [5]: 147 ± 9 nM | ED90 98IN017 [5]: >500 nM | ED70 92UG029 [6]: 0.3 ± 0.1 nM | ED90 92UG029 [6]: 0.8 ± 0.3 nM | ED70 92HT599 [7]: 1.3 ± 0.9 nM | ED90 92HT599 [7]: 3.5 ± 0.0 nM | ED70 SF162 [8]: 0.4 ± 0.3 nM | ED90 SF162 [8]: 0.9 ± 0.2 nM | binding of gp120 MN in complex with the compound to heparin-coated surface [9]: only partially inhibited | mAb17b binding to gp120 YU2(R5)-coated surface pretreated with the compound [10]: fully inhibits | binding of gp120 YU2 in complex with the compound to mAb17b-coated surface [10]: fully inhibited | mAb17b binding to gp120 MN(X4)-coated surface pretreated with the compound [11]: fully inhibits | binding of gp120 MN in complex with the compound to mAb17b-coated surface [11]: fully inhibited | binding of gp120 YU2 in complex with the compound to sCD4-coated surface [12]: fully inhibited
